Results of unrelated studies side by side (data: NIAID ChemDB).

Common to all: tests in culture; species: Mycobacterium smegmatis; measure: MIC

Two numbers with a dash give a range or band. Lines come from different laboratories, so protocols vary. An empty or dashed field is not shown.

compound | strain | changes | read by | result
C=C1C2CCC(CO)[C@@]23CC[C@H](C3)C1(C)C | CSC101 | Ciprofloxacin-resistant | agar diffusion | 12.5 µg/mL
Cc1ccccc1NC(=O)CCCCc1[nH]c2ccccc2c1C1=C(Br)C(=O)NC1=O | SG987 |  |  | 25 µg/mL
CSCC[C@H](NS(=O)(=O)c1ccc(C)cc1)C(=O)N/N=C/c1ccc(N2CCCCC2)cc1 | ATCC 607 |  | broth dilution / visual reading | >250 µg/mL
CCCCCCCc1[nH]c2ccccc2c1C1=C(Br)C(=O)NC1=O | SG987 |  |  | 0.3 µg/mL
CCO/N=C(/CN1CCN(c2c(F)cc3c(=O)c(C(=O)O)cn(C4CC4)c3c2OC)CC1C)c1cc2ccccc2oc1=O | CMCC 93202 |  |  | >12.5 µg/mL
CN[C@@H]1[C@H](O[C@H]2[C@H](O[C@H]3[C@H](O)[C@@H](O)[C@H](N=C(N)N)[C@@H](O)[C@@H]3N=C(N)N)O[C@@H](C)[C@]2(O)C=O)O[C@@H](CO)[C@H](O)[C@H]1O | ATCC 607 |  | broth dilution / visual reading | 4 µg/mL
CC(C)(C)NC(=O)C1c2ccccc2CCN1c1cc2c(=O)c(C(=O)O)c3n(c2cc1F)CS3 | ATCC 14468 |  | agar | 51.92 µM
CCO/N=C(/CN1CCN(c2cc3c(cc2F)c(=O)c(C(=O)O)cn3C2CC2)CC1)c1cc2ccc(OC)cc2oc1=O | CMCC 93202 |  |  | 12.5 µg/mL
CSCC[C@H](NS(=O)(=O)c1ccc(C)cc1)C(=O)N/N=C/c1ccccc1Cl | ATCC 607 |  | broth dilution / visual reading | >250 µg/mL
NCCCNCc1ccnc(Nc2ccn(CCOCCN3CCC(N)CC3)c(=O)n2)c1 |  |  | turbidity | 32–128 µg/mL
CCCCCCCCO[C@@H]1O[C@H]([C@H](C)O)C(O)C1O | mc2155 |  | absorbance | 0.86 µM
NC1CCN(CCCCn2ccc(Nc3ccc(CN4CCC(N)CC4)cn3)nc2=O)CC1 |  |  | turbidity | <8 µg/mL
Cc1onc(-c2c(F)cccc2F)c1C(=O)N1CCN(c2cc3c(=O)c(C(=O)O)c4n(c3cc2[N+](=O)[O-])CS4)CC1 | ATCC 14468 |  | agar | 5.36 µM
CCCCCCCCO[C@@H]1O[C@H]([C@H](O)CO)C(O)C1NC(C)=O | mc2155 |  | absorbance | >1.5 µM
CN[C@H]1[C@@H](O)[C@@H](O)[C@@H](O[C@H]2CC[C@@H](n3cc(NC(=O)c4ccc(NC(=O)[C@@](C)(N)CO)cc4)cnc3=O)O[C@H]2C)O[C@H]1C |  |  | broth dilution / agar diffusion | 16 µg/mL
O=C1NC(=O)C(c2c[nH]c3ccccc23)=C1Br | SG987 |  |  | 12.5 µg/mL
NCCCOCc1ccc(Nc2ccn(CCCCN3CCC(N)CC3)c(=O)n2)nc1 |  |  | turbidity | 8–32 µg/mL
CCc1[nH]c2ccccc2c1C1=C(Br)C(=O)NC1=O | SG987 |  |  | 7.95 µg/mL
Cc1onc(-c2c(F)cccc2F)c1C(=O)N1CCN(c2cc3c(=O)c(C(=O)O)c4n(c3cc2F)CS4)CC1 | ATCC 14468 |  | agar | 89.85 µM
CSCC[C@H](NS(=O)(=O)c1ccc(C)cc1)C(=O)N/N=C/c1ccc(-c2ccc([N+](=O)[O-])cc2)o1 | ATCC 607 |  | broth dilution / visual reading | >250 µg/mL
CCCCCCCCC(O)[C@@H]1O[C@H]([C@H](O)CF)C(O)C1O | mc2155 |  | absorbance | 1.5 µM
NC1CCN(CCCCn2ccc(Nc3ccc(CNC4CNC4)cn3)nc2=O)CC1 |  |  | turbidity | 8–32 µg/mL
CSCC[C@H](NS(=O)(=O)c1ccc(C)cc1)C(=O)N/N=C/c1sccc1C | ATCC 607 |  | broth dilution / visual reading | >250 µg/mL
CCCCCCCCOCC(C)(CO)[C@@H]1O[C@H]([C@H](O)CO)C(O)C1O | mc2155 |  | absorbance | >2 µM
CO/N=C(/CN1CCN(c2c(F)cc3c(=O)c(C(=O)O)cn(C4CC4)c3c2OC)CC1C)c1cc2ccccc2oc1=O | CMCC 93202 |  |  | >12.5 µg/mL
CC1OC(n2ccc(NC(=O)c3ccc(NC(=O)C(C)(N)CO)cc3)nc2=O)CCC1OC1OC(C)C(N(C)C)C(O)C1O |  |  | broth dilution / agar diffusion | 8 µg/mL
O=C(O)c1c2n(c3cc(F)c(N4CCN(Cc5ccc6c(c5)OCO6)CC4)cc3c1=O)CS2 | ATCC 14468 |  | agar | 53.25 µM
CO/N=C(/CN1CCN(c2c(F)cc3c(=O)c(C(=O)O)cn(C4CC4)c3c2OC)CC1)c1cc2ccc(OC)cc2oc1=O | CMCC 93202 |  |  | 6.25 µg/mL
O=C(O)c1c2n(c3cc([N+](=O)[O-])c(N4CCSCC4)cc3c1=O)CS2 | ATCC 14468 |  | agar | 132 µM
Cc1ccccc1/C=C/C1=NN(C(=N)N)C(c2ccccc2C)C1 |  |  | resazurin | 1.96 µM
O=C(CN1CCN(c2cc3c(cc2F)c(=O)c(C(=O)O)cn3C2CC2)CC1)c1cc2ccc(O)cc2oc1=O | CMCC 93202 |  |  | 3.12 µg/mL
O=C(NCCOCCOCCNC(=O)c1ccc2c(c1)B(O)OC2)c1ccc2c(c1)B(O)OC2 | mc2155 |  | visual reading / absorbance | 390–780 µM
CSCC[C@H](NS(=O)(=O)c1ccc(C)cc1)C(=O)N/N=C/c1ccc(Cl)cc1Cl | ATCC 607 |  | broth dilution / visual reading | >250 µg/mL
CC1(C)CC[C@]2(C(=O)O)CC[C@]3(C)C(CC[C@@H]4[C@@]5(C)C[C@H](O)CC(C)(C)[C@@H]5CC[C@]43C)[C@@H]2C1 |  |  | resazurin | 100 µg/mL
N=C(N)N1N=C(/C=C/c2ccc(Cl)cc2)CC1c1ccc(Cl)cc1 |  |  | resazurin | 1.74 µM
CC1CN(c2cc3c(=O)c(C(=O)O)c4n(c3cc2[N+](=O)[O-])CS4)CC(C)O1 | ATCC 14468 |  | agar | 63.87 µM
NNC(=O)c1ccncc1 | MC^2 802 |  |  | 15 µg/mL
CSCC[C@H](NS(=O)(=O)c1ccc(C)cc1)C(=O)N/N=C/c1ccc(-c2ccc(Cl)cc2Cl)o1 | ATCC 607 |  | broth dilution / visual reading | >250 µg/mL
CO/N=C(/CN1CCN(c2cc3c(cc2F)c(=O)c(C(=O)O)cn3C2CC2)CC1)c1cc2ccccc2oc1=O | CMCC 93202 |  |  | 12.5 µg/mL
CN1C(=O)C(Br)=C(c2c[nH]c3ccccc23)C1=O | SG987 |  |  | 6.25 µg/mL
CSCC[C@H](NS(=O)(=O)c1ccc(C)cc1)C(=O)N/N=C/c1cc2c(cc1[N+](=O)[O-])OCO2 | ATCC 607 |  | broth dilution / visual reading | >250 µg/mL

A second listing of 5 rows from above:

compound | strain | changes | read by | result
CCCCCCCCO[C@@H]1O[C@H]([C@H](C)O)C(O)C1O | mc2155 |  | absorbance | 0.86 µM
NC1CCN(CCCCn2ccc(Nc3ccc(CNC4CNC4)cn3)nc2=O)CC1 |  |  | turbidity | 8–32 µg/mL
CSCC[C@H](NS(=O)(=O)c1ccc(C)cc1)C(=O)N/N=C/c1ccc(-c2ccc(Cl)cc2Cl)o1 | ATCC 607 |  | broth dilution / visual reading | >250 µg/mL
CSCC[C@H](NS(=O)(=O)c1ccc(C)cc1)C(=O)N/N=C/c1ccc(-c2ccc([N+](=O)[O-])cc2)o1 | ATCC 607 |  | broth dilution / visual reading | >250 µg/mL
Cc1ccccc1NC(=O)CCCCc1[nH]c2ccccc2c1C1=C(Br)C(=O)NC1=O | SG987 |  |  | 25 µg/mL